Data: paper PMC4867592, “Targeting multiple response regulators of Mycobacterium tuberculosis augments the host immune response to infection” (Scientific Reports, 2016)

What was measured:
RegX3 R202A = target: T1, RegX3 R202A (UniProt P9WGL9); test: SPR; conditions: recombinant protein; residues 1-227; label: 5' Cy5 (EMSA), 5' biotin (SPR); probe letters rebuilt from the primers and the genome
T1 sequence (looked up): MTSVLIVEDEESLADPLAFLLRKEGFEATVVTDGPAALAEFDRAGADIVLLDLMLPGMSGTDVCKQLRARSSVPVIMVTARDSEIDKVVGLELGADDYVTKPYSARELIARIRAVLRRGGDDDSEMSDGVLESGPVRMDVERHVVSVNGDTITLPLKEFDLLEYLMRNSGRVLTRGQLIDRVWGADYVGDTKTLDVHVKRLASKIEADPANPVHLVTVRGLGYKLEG

[1] = target: RegX3 WT (phosphorylated) (UniProt P9WGL9); test: SPR; conditions: recombinant protein; residues 1-227; label: 5' Cy5 (EMSA), 5' biotin (SPR); probe letters rebuilt from the primers and the genome
[2] = target: RegX3 WT (phosphorylated) (UniProt P9WGL9); test: EMSA; conditions: recombinant protein, residues 1-227, label: 5' Cy5 (EMSA), 5' biotin (SPR), probe letters rebuilt from the primers and the genome

Measured: binding result

ACCGGCTTGGGACCGGCACCGCGGTACTGTGTGCGTTCGGCACCGCGCTGCACCCGCGGTTCGGGCCGGATTCGTCCGCGCGGCACCGCCGTTCGGGCGC (double strand) [ppK1 promoter fragment]
binds: RegX3 R202A | [1] | [2]

Construct, isoform or probe ends are uncertain for at least one entry. For part of these data: At least one verdict was read from the data and is not stated in words by the source. For part of these data: Tags and fusion partners may be left off the protein sequences shown.
